Assay results reported in patent US20060280723A1 (priority 2003, published 2006).

B1: interferon β1a: interferon beta (IFNβ) subtype β1a (protein, UniProt P01574 22-187, looked up)
Interferon beta: MSYNLLGFLQRSSNFQCQKLLWQLNGRLEYCLKDRMNFDIPEEIKQLQQFQKEDAALTIYEMLQNIFAIFRQDSSSTGWNETIVENLLANVYHQINHLKTVLEEKLEKEDFTRGKLMSSLHLKRYYGRILHYLKAKEYSHCAWTIVRVEILRNFYFINRLTGYLRN

Legend:
SARS-HCoV 2003VA2774 = format: cell-based, SARS human coronavirus (SARS-HCoV)
[1] = system: SARS-HCoV, strain Frankfurt-1

Molecule	OD values (baseline levels in the cytotoxicity assay) (Vero E6 cells)	Tendency to increase baseline levels in the cytotoxicity assay (Vero E6 cells)	Concentration up to which cells were not fully protected from SARS-HCoV infection (SARS-HCoV 2003VA2774)	Inhibition of cytopathic effect (SARS-HCoV 2003VA2774)	IC50 Exp. Type 1, 10 TCID50 [1]	IC50 Exp. Type 1, 100 TCID50 [1]	IL50 Exp. Type 2, 10 TCID50 [1]	IL50 Exp. Type 2, 100 TCID50 [1]
Roferon: recombinant alpha IFN product (IFN-alpha 2a) from Roche	≤ 0.6	showed a tendency to increase baseline levels	> 500000 IU/ml	did not show significant inhibition	>3.125 IU/ml	>3.125 IU/ml	>3.125 IU/ml	>3.125 IU/ml
B1				did not show significant inhibition				
